Measured values as given in the supplement of paper PMC8728848.
About 410 targets per protein were measured; listed, in parts, are those with the strongest signals and a random draw of the rest.

Key:
Test in all cases: glycan array binding signal (z-score within array); higher = stronger binding
Conditions in all cases: glycan notation: IUPAC condensed, linker removed
[1] = target: Fuc(a1-2)Gal(b1-3)GlcNAc(b1-2)Man(a1-3)[Fuc(a1-2)Gal(b1-3)GlcNAc(b1-2)Man(a1-6)]Man(b1-4)GlcNAc(b1-4)[Fuc(a1-6)]GlcNAc
[2] = target: Fuc(a1-2)Gal(b1-4)[Fuc(a1-3)]GlcNAc(b1-3)[Neu5Ac(a2-6)Gal(b1-4)GlcNAc(b1-6)]Gal(b1-4)Glc
Fuc(a1-2)[Gal(a1-3)]Gal = target: Fuc(a1-2)[Gal(a1-3)]Gal
[3] = target: Fuc(a1-2)[Gal(a1-3)]Gal(b1-4)GlcNAc(b1-3)GalNAc
[4] = target: Fuc(a1-2)[GalNAc(a1-4)]Gal(b1-4)GlcNAc
Gal(a1-2)Gal = target: Gal(a1-2)Gal
[5] = target: Gal(a1-3)Gal(b1-3)GlcNAc(b1-6)GalNAc
[6] = target: Gal(a1-4)Gal(b1-3)GlcNAc(b1-2)Man(a1-3)[Gal(a1-4)Gal(b1-3)GlcNAc(b1-2)Man(a1-6)]Man(b1-4)GlcNAc(b1-4)GlcNAc
[7] = target: Gal(a1-4)Gal(b1-4)GlcNAc(b1-3)Gal(b1-4)Glc
[8] = target: Gal(b1-3)GalNAc(b1-4)Gal(b1-4)Glc
[9] = target: Gal(b1-3)[Fuc(a1-4)]GlcNAc(b1-3)Gal(b1-3)[Fuc(a1-4)]GlcNAc
[10] = target: Gal(b1-3)[Fuc(a1-4)]GlcNAc(b1-3)Gal(b1-4)[Fuc(a1-3)]GlcNAc
[11] = target: Gal(b1-4)GalNAc(b1-3)[Fuc(a1-2)]Gal(b1-4)GlcNAc
[12] = target: Gal(b1-4)GlcNAc(b1-2)Man(a1-3)[Gal(b1-4)GlcNAc(b1-2)Man(a1-6)]Man(b1-4)GlcNAc(b1-4)[Fuc(a1-6)]GlcNAc
[13] = target: Gal(b1-4)GlcNAc(b1-2)Man(a1-6)[Man(a1-3)]Man(b1-4)GlcNAc(b1-4)GlcNAc
[14] = target: Gal(b1-4)GlcNAc(b1-3)Gal(b1-4)GlcNAc(b1-3)Gal(b1-4)GlcNAc(b1-3)Gal(b1-4)GlcNAc(b1-3)Gal(b1-4)GlcNAc(b1-2)[Gal(b1-4)GlcNAc(b1-3)Gal(b1-4)GlcNAc(b1-3)Gal(b1-4)GlcNAc(b1-3)Gal(b1-4)GlcNAc(b1-3)Gal(b1-4)GlcNAc(b1-6)]Man(a1-6)[Gal(b1-4)GlcNAc(b1-3)Gal(b1-4)GlcNAc(b1-3)Gal(b1-4)GlcNAc(b1-3)Gal(b1-4)GlcNAc(b1-3)Gal(b1-4)GlcNAc(b1-2)Man(a1-3)]Man(b1-4)GlcNAc(b1-4)[Fuc(a1-6)]GlcNAc
[15] = target: Gal(b1-4)GlcNAc(b1-3)[GlcNAc(b1-6)]Gal(b1-4)GlcNAc
[16] = target: Gal(b1-4)GlcNAc(b1-6)GalNAc
Gal3S(b1-3)GalNAc = target: Gal3S(b1-3)GalNAc
Gal4S6S(b1-4)GlcNAc = target: Gal4S6S(b1-4)GlcNAc
Gal6S(b1-4)GlcNAc6S = target: Gal6S(b1-4)GlcNAc6S
[17] = target: GalNAc(a1-3)GalNAc(b1-3)Gal(a1-4)Gal(b1-4)Glc
[18] = target: GlcNAc(b1-4)[GlcNAc(b1-6)]GalNAc
[19] = target: Kdn(a2-3)Gal(b1-4)[Fuc(a1-3)]GlcNAc
[20] = target: Man(a1-2)Man(a1-2)Man(a1-6)[Man(a1-3)]Man
[21] = target: Man(a1-2)Man(a1-3)[Man(a1-2)Man(a1-6)]Man(a1-6)[Man(a1-2)Man(a1-2)Man(a1-3)]Man
[22] = target: Man(a1-2)Man(a1-3)[Man(a1-2)Man(a1-6)]Man(a1-6)[Man(a1-2)Man(a1-2)Man(a1-3)]Man(b1-4)GlcNAc(b1-4)GlcNAc
[23] = target: Man(a1-2)Man(a1-6)[Man(a1-3)]Man(a1-6)[Man(a1-2)Man(a1-2)Man(a1-3)]Man
[24] = target: Man(a1-2)Man(a1-6)[Man(a1-3)]Man(a1-6)[Man(a1-2)Man(a1-2)Man(a1-3)]Man(b1-4)GlcNAc(b1-4)GlcNAc
Man(a1-3)[Man(a1-6)]Man = target: Man(a1-3)[Man(a1-6)]Man
[25] = target: Man(a1-3)[Man(a1-6)]Man(a1-6)[Man(a1-2)Man(a1-3)]Man(b1-4)GlcNAc(b1-4)GlcNAc
[26] = target: Man(a1-3)[Man(a1-6)]Man(a1-6)[Man(a1-3)]Man
[27] = target: Man(a1-3)[Man(a1-6)]Man(a1-6)[Man(a1-3)]Man(b1-4)GlcNAc(b1-4)GlcNAc
[28] = target: Man(a1-3)[Man(a1-6)]Man(b1-4)GlcNAc(b1-4)GlcNAc
Man(a1-6)Man = target: Man(a1-6)Man
[29] = target: Neu5Ac(a2-3)Gal(b1-3)[Fuc(a1-4)]GlcNAc(b1-3)Gal(b1-4)[Fuc(a1-3)]GlcNAc
[30] = target: Neu5Ac(a2-3)Gal(b1-4)GlcNAc
[31] = target: Neu5Ac(a2-3)Gal(b1-4)[Fuc(a1-3)]GlcNAc(b1-6)[Gal(b1-3)]GalNAc
[32] = target: Neu5Ac(a2-3)[Neu5Ac(a2-6)]GalNAc
[33] = target: Neu5Ac(a2-6)Gal(b1-4)GlcNAc(b1-2)Man(a1-3)Man(b1-4)GlcNAc(b1-4)GlcNAc
[34] = target: Neu5Ac(a2-6)Gal(b1-4)GlcNAc(b1-2)Man(a1-6)[GlcNAc(b1-2)Man(a1-3)]Man(b1-4)GlcNAc(b1-4)GlcNAc
[35] = target: Neu5Ac(a2-6)Gal(b1-4)GlcNAc(b1-2)Man(a1-6)[Man(a1-3)]Man(b1-4)GlcNAc(b1-4)GlcNAc
[36] = target: Neu5Ac(a2-8)Neu5Ac(a2-3)Gal(b1-3)GalNAc(b1-4)[Neu5Ac(a2-3)]Gal(b1-4)Glc
[37] = target: Neu5Gc(a2-3)Gal(b1-4)GlcNAc(b1-3)Gal(b1-4)GlcNAc(b1-2)Man(a1-3)[Neu5Gc(a2-3)Gal(b1-4)GlcNAc(b1-3)Gal(b1-4)GlcNAc(b1-2)Man(a1-6)]Man(b1-4)GlcNAc(b1-4)GlcNAc

B1: FimH (Escherichia coli), P08191 (protein)
chain: FACKTANGTAIPIGGGSANVYVNLAPVVNVGQNLVVDLSTQIFCHNDYPETITDYVTLQRGSAYGGVLSNFSGTVKYSGSSYPFPTTSETPRVVYNSRTDKPWPVALYLTPVSSAGGVAIKAGSLIAVLILRQTNNYNSDDFQFVWNIYANNDVVVPT
glycan array binding signal (z-score) [1]: 1.22 | glycan array binding signal (z-score) [2]: -0.289 | glycan array binding signal (z-score) (Fuc(a1-2)[Gal(a1-3)]Gal): -0.326 | glycan array binding signal (z-score) [3]: -0.263 | glycan array binding signal (z-score) [4]: -0.333 | glycan array binding signal (z-score) (Gal(a1-2)Gal): -0.312 | glycan array binding signal (z-score) [5]: -0.296 | glycan array binding signal (z-score) [6]: 2.12 | glycan array binding signal (z-score) [7]: -0.296 | glycan array binding signal (z-score) [8]: -0.33 | glycan array binding signal (z-score) [9]: 0.212 | glycan array binding signal (z-score) [10]: -0.274 | glycan array binding signal (z-score) [11]: -0.334 | glycan array binding signal (z-score) [12]: 0.061 | glycan array binding signal (z-score) [13]: 4.1 | glycan array binding signal (z-score) [14]: 0.904 | glycan array binding signal (z-score) [15]: -0.333 | glycan array binding signal (z-score) [16]: -0.31 | glycan array binding signal (z-score) (Gal3S(b1-3)GalNAc): -0.332 | glycan array binding signal (z-score) (Gal4S6S(b1-4)GlcNAc): -0.331 | glycan array binding signal (z-score) (Gal6S(b1-4)GlcNAc6S): -0.33 | glycan array binding signal (z-score) [17]: -0.33 | glycan array binding signal (z-score) [18]: -0.333 | glycan array binding signal (z-score) [19]: -0.31 | glycan array binding signal (z-score) [20]: 4.37 | glycan array binding signal (z-score) [21]: 3.9 | glycan array binding signal (z-score) [22]: 2.56 | glycan array binding signal (z-score) [23]: 4.11 | glycan array binding signal (z-score) [24]: 4.65 | glycan array binding signal (z-score) (Man(a1-3)[Man(a1-6)]Man): 6.22 | glycan array binding signal (z-score) [25]: 3.96 | glycan array binding signal (z-score) [26]: 4.92 | glycan array binding signal (z-score) [27]: 5.51 | glycan array binding signal (z-score) [28]: 4.48 | glycan array binding signal (z-score) (Man(a1-6)Man): 0.871 | glycan array binding signal (z-score) [29]: 0.431 | glycan array binding signal (z-score) [30]: -0.327 | glycan array binding signal (z-score) [31]: -0.282 | glycan array binding signal (z-score) [32]: -0.33 | glycan array binding signal (z-score) [33]: -0.273 | glycan array binding signal (z-score) [34]: -0.12 | glycan array binding signal (z-score) [35]: 5.83 | glycan array binding signal (z-score) [36]: -0.328 | glycan array binding signal (z-score) [37]: -0.165
